Measured values from several laboratories, pooled; numbers as filed in NIAID ChemDB.

Common to all: cytotoxicity tests; cell line: CEM; read-out: CC50

CCn is the concentration with n% toxicity to the cells. Blank or dashed fields: not listed here. Conditions beyond the fields shown may differ between rows.

SMILES,read by,result
Cn1cc(NC(=O)c2cc(NC(=O)c3cc([N+](=O)[O-])cn3C)cn2C)cc1C(=O)NCCC(=N)N,MTT,112 µM
CCCc1cnnn1[C@@H]1O[C@H](CO[Si](C)(C)C(C)(C)C)C2(OS(=O)(=O)C=C2N)[C@H]1O[Si](C)(C)C(C)(C)C,,>3.9 µM
CCNC(=O)c1cc(Cl)ccc1NC(=O)C12CC3CC(CC(C3)C1)C2,,>200 µM
c1ccc(C2OCc3nc4ccccc4n32)cc1,,13 µM
Cc1cn([C@H]2C=C[C@@H](COP3(=O)OCc4cccc(C(C)(C)C)c4O3)O2)c(=O)[nH]c1=O,,35 µM
Fc1ccc(F)c(C2OCc3nc4ccccc4n32)c1,,38 µM
O=c1[nH]c(=O)n([C@H]2C[C@H](F)[C@@H](CO)O2)cc1C#CI,,15.1 µM
CC(=N)CCNC(=O)c1cc(NC(=O)c2cc(NC(=O)c3cc(NP(=O)(OC[C@@H]4C=C[C@H](n5cc(C)c(=O)[nH]c5=O)O4)OC4CCCCC4)cn3C)cn2C)cn1C,MTT,120 µM
Cc1cccc2c1OP(=O)(OC[C@@H]1C=C[C@H](n3cnc4c(NC5CC5)nc(N)nc43)C1)OC2,,103 µM
COC(=O)[C@@H](NC(=O)[C@@H](NC(=O)CC[C@H](O)[C@H](Cc1ccccc1)NC(=O)[C@H](C)NC(=O)[C@H](C)NC(=O)OCc1ccccc1)C(C)C)C(C)C,,>100 µM
CC(C)Nc1cccnc1N1CCN(C(=O)c2cc3cc(NS(C)(=O)=O)ccc3[nH]2)CC1,,≥20 µg/mL
Cc1cn([C@H]2C=C[C@@H](COP3(=O)OCc4cc(Br)ccc4O3)O2)c(=O)[nH]c1=O,,64 µM
Nc1nc2c(ncn2[C@H]2C=C[C@@H](CO)C2)c(=O)[nH]1,,190 µM
Nc1ncn([C@H]2C[C@H](O)[C@@H](CO)O2)c(=O)n1,,>1 µM
CCOC(=O)c1cn([C@@H]2O[C@H](CO[Si](C)(C)C(C)(C)C)C3(OS(=O)(=O)C=C3N)[C@H]2O[Si](C)(C)C(C)(C)C)nn1,,>0.54 µM
Cc1cn([C@H]2C=C[C@@H](CO)O2)c(=O)[nH]c1=O,MTT,184 µM
Nc1ncnc2c1ncn2CCOCP(=O)(O)O,,56 µM
O=c1[nH]c(=O)n([C@H]2C[C@H](O)[C@@H](CO)O2)cc1C12B3B4B5B6B(B3B1B42)B1B5C61,,>100 µM
Cc1cn([C@@H]2O[C@H](CC3CCCCC3)C3(OS(=O)(=O)C=C3N)[C@H]2O[Si](C)(C)C(C)(C)C)c(=O)[nH]c1=O,trypan blue,7.7 µg/mL
Cc1occc1C(=S)Nc1ccc(Cl)c(/C=N/OC(C)(C)C)c1,,5.8 µg/mL
CN(C)[C@@H]1C(=O)C(C(N)=O)=C(O)[C@@]2(O)C(=O)C3=C(O)c4c(O)cccc4[C@@](C)(O)[C@H]3C[C@@H]12,,>6.6 µg/mL
Cc1cn([C@@H]2O[C@H](CC3CCCCC3)C3(OS(=O)(=O)C=C3N)[C@H]2OC(=O)c2ccccc2)c(=O)[nH]c1=O,trypan blue,8.8 µg/mL
CCCNC(=O)c1cc(OC)c(OC)cc1NC(=O)C12CC3CC(CC(C3)C1)C2,,>200 µM
Cc1ccnc2c1NC(=O)c1cccnc1N2C1CC1,XTT,>200 µM
CN(C)C(=O)c1cnnn1[C@@H]1O[C@H](CO[Si](C)(C)C(C)(C)C)C2(OS(=O)(=O)C=C2N)[C@H]1O[Si](C)(C)C(C)(C)C,,>0.12 µM
Cc1nc(C(=O)N[C@@H](Cc2ccccc2)[C@@H](O)C[C@H](Cc2ccccc2)NC(=O)c2ccccc2NC(=O)OCc2ccccn2)cs1,,>10 µM
COC(=O)[C@H](C)NP(=O)(OC[C@@H]1C=C[C@H](n2cc(C)c(=O)[nH]c2=O)O1)Oc1ccccc1,,>10 µM
Nc1ccn([C@H]2CC[C@@H](CO)O2)c(=O)n1,,12.3 µg/mL
COCc1cn([C@@H]2O[C@H](CO[Si](C)(C)C(C)(C)C)C3(OS(=O)(=O)C=C3N)[C@H]2O[Si](C)(C)C(C)(C)C)nn1,,>2.3 µM
Nc1nc(=O)n([C@H]2CO[C@@H](CO)S2)cc1F,,>500 µM
Cc1ccnc2c1N(CN1CCNCC1)C(=O)c1cccnc1N2C1CC1,XTT,>200 µM
CC(C)(C)[Si](C)(C)OC[C@H]1O[C@@H](n2nncc2CCCCl)[C@H](O[Si](C)(C)C(C)(C)C)C12OS(=O)(=O)C=C2N,,>0.82 µM
COC(=O)[C@H](C)NP(=O)(OC[C@@H]1C=C[C@H](n2cc(C)c(=O)[nH]c2=O)O1)Oc1ccc(Br)cc1,,>10 µM
[N-]=[N+]=N[C@H]1C[C@H](n2cc(/C(I)=C\I)c(=O)[nH]c2=O)O[C@@H]1CO,,30.7 µM
[N-]=[N+]=N[C@@H]1[C@H](O)[C@@H](CO)O[C@H]1n1ccc(N)nc1=O,,<1 µM
CC(C)(C)[Si](C)(C)OC[C@H]1O[C@@H](n2cc(CCCCl)nn2)[C@H](O[Si](C)(C)C(C)(C)C)C12OS(=O)(=O)C=C2N,,>0.66 µM
Nc1nc2c(ncn2COCCOP2(=O)OCc3ccccc3O2)c(=O)[nH]1,,165 µM
Cc1ccnc2c1N(CN1CCN(c3cccc(Cl)c3)CC1)C(=O)c1cccnc1N2C1CC1,XTT,>200 µM
CCCc1cn([C@@H]2O[C@H](CO[Si](C)(C)C(C)(C)C)C3(OS(=O)(=O)C=C3N)[C@H]2O[Si](C)(C)C(C)(C)C)nn1,,>1.3 µM
Nc1ccn([C@@H]2CO[C@H](CO)S2)c(=O)n1,,103 µM
CN(C)[C@@H]1C(=O)C(C(N)=O)=C(O)[C@@]2(O)C(=O)C3=C(O)c4c(O)ccc(Cl)c4[C@@](C)(O)C3C[C@@H]12,,>10 µg/mL
CC(COCP(=O)(O)O)n1cnc2c(=O)[nH]c(N)nc21,,>100 µg/mL
Cc1ccnc2c1N(CN1CCN(c3ccc([N+](=O)[O-])cc3)CC1)C(=O)c1cccnc1N2C1CC1,XTT,>200 µM
Cc1c(N)cccc1C(=O)N[C@@H](Cc1ccccc1)[C@@H](O)C[C@H](Cc1ccccc1)NC(=O)c1ccccc1NC(=O)OCc1ccccn1,,>0.06 µM
Cc1cn([C@H]2C[C@H](N=[N+]=[N-])[C@@H](CO)O2)c(=O)[nH]c1=O,,>0.008 µM
Cc1ccc2nc(C34CC5CC(CC(C5)C3)C4)oc(=O)c2c1,,80 µM
Cc1ccc2c(c1)COP(=O)(OCCOCn1cnc3c(=O)[nH]c(N)nc31)O2,,111 µM
Cc1c(O)cccc1C(=O)N[C@@H](Cc1ccccc1)[C@@H](O)[C@@H](O)[C@H](Cc1ccccc1)NC(=O)c1ccccc1NC(=O)OCc1ccccn1,,>0.02 µM
Nc1ncnc2c1ncn2CCOCP(=O)(O)O,,>100 µg/mL
O=C(Nc1ccccc1C(=O)N[C@@H](Cc1ccccc1)C[C@H](O)[C@H](Cc1ccccc1)NC(=O)c1cscn1)OCc1ccccn1,,>3 µM
Cc1ccnc2c1N(CN1CCN(c3ccc(F)cc3)CC1)C(=O)c1cccnc1N2C1CC1,XTT,>200 µM
Cc1cccc2c1OP(=O)(OC[C@@H]1C[C@H](F)[C@H](n3cnc4c(=O)[nH]cnc43)O1)OC2,,91 µM
Cc1cn([C@H]2C=C[C@@H](COP3(=O)OCc4cc(CCC(=O)OCOC(=O)C(C)(C)C)ccc4O3)O2)c(=O)[nH]c1=O,,24 µM
Cn1cc(NC(=O)c2cc(NC(=O)c3cc([N+](=O)[O-])cn3C)cn2C)cc1C(=O)NCCC#N,MTT,145 µM
CN(C)[C@@H]1C(=O)C(C(=O)NCNC(CCCCN)C(=O)O)=C(O)[C@@]2(O)C(=O)C3=C(O)c4c(O)cccc4[C@@](C)(O)C3C[C@@H]12,,30 µg/mL
COC(=O)c1nnn([C@@H]2O[C@H](CO[Si](C)(C)C(C)(C)C)C3(OS(=O)(=O)C=C3N)[C@H]2O[Si](C)(C)C(C)(C)C)c1C(=O)OC,,>0.53 µM
O=c1[nH]cnc2c1ncn2[C@H]1O[C@@H](CO)C=C1F,,>100 µM
CCCCCCCCCCCCCCCCCCOC[C@@H](O)COP(=O)(O)C(=O)O,,114 µM
CN=C1CN=C(c2ccc[nH]2)c2cc(Cl)ccc2N1,,>40 µM
Cc1cn([C@H]2C[C@H](N=[N+]=[N-])[C@@H](CO)O2)c(=O)[nH]c1=O,MTT,>200 µM
Nc1ncnc2c1ncn2[C@@H]1O[C@@H](CO)C=C1F,,>100 µM
CC(C)(C)OC(=O)N[C@@H](Cc1ccccc1)[C@@H](O)C[C@H](Cc1ccccc1)NC(=O)c1ccccc1NC(=O)OCc1ccccn1,,>0.6 µM
Nc1nc(NC2CC2)c2ncn([C@H]3C=C[C@@H](COP4(=O)OCc5cc(Cl)ccc5O4)C3)c2n1,,113 µM
O=c1[nH]c(=O)n([C@H]2C[C@H](F)[C@@H](CO)O2)cc1/C(Br)=C/I,,31.6 µM
NCC(=O)Nc1ccc(Cl)cc1C(=O)c1ccc[nH]1,,3 µg/mL
Cc1cn([C@H]2C[C@H](N=[N+]=[N-])[C@@H](CO)O2)c(=O)[nH]c1=O,,35.6 µM
[N-]=[N+]=N[C@H]1C[C@H](n2cc(/C(Cl)=C\I)c(=O)[nH]c2=O)O[C@@H]1CO,,48.1 µM
CCCN(C)C(=O)Oc1nsnc1-c1c(Cl)ccc(N)c1Cl,,128 µM
COC(=O)[C@H](C)N[P@](=O)(OC[C@@H]1C=C[C@H](n2cc(C)c(=O)[nH]c2=O)O1)Oc1ccccc1C,,>250 µM
C[C@H](Cn1cnc2c(N)ncnc21)OCP(=O)(O)O,,410 µM

A second listing of 4 rows from above:

SMILES | read by | result
COC(=O)[C@H](C)NP(=O)(OC[C@@H]1C=C[C@H](n2cc(C)c(=O)[nH]c2=O)O1)Oc1ccc(Br)cc1 |  | >10 µM
O=c1[nH]c(=O)n([C@H]2C[C@H](F)[C@@H](CO)O2)cc1/C(Br)=C/I |  | 31.6 µM
CC(C)(C)[Si](C)(C)OC[C@H]1O[C@@H](n2nncc2CCCCl)[C@H](O[Si](C)(C)C(C)(C)C)C12OS(=O)(=O)C=C2N |  | >0.82 µM
CC(C)(C)OC(=O)N[C@@H](Cc1ccccc1)[C@@H](O)C[C@H](Cc1ccccc1)NC(=O)c1ccccc1NC(=O)OCc1ccccn1 |  | >0.6 µM